Columns and labels:
[1] = tested on: HT-29 colon tumor xenografts; test: HT-29 colon tumor xenografts in scid mice, tumor protein levels by Western blotting; conditions: HT-29 xenografts in scid mice, 2 hr
HIF-1α = test: Ubiquitination of HIF-1α in cells (immunoprecipitation and Western blotting); assay type: cell-based, human; conditions: HT-29 cells, 16 hours, normoxic and hypoxic conditions, dose-dependent
HIF-1α protein = HIF-1α protein levels in cancer cells by Western blotting of nuclear extracts; conditions: MCF-7 cells, hypoxia 16 hours with 25 M PX-478, then washed out
[2] = tested on: deubiquitinase enzyme activity (HT-29 cell lysate) on polyubiquitinated HIF-1α; test: In vitro deubiquitination assay with polyubiquitinated HIF-1α and cell lysate; assay type: biochemical, human; conditions: HT-29 lysate incubated 15 min with 5 μM PX-478, the lowest concentration tested

N[C@@H](Cc1ccc([N+]([O-])(CCCl)CCCl)cc1)C(=O)O
Decrease in tumor HIF-1α protein ([1]; 100 mg/kg intraperitoneally): 60%
Decrease in tumor VEGF protein ([1]; 100 mg/kg intraperitoneally): 30%
Ubiquitination of HIF-1α in tumor ([1]; 100 mg/kg): markedly increased
Ubiquitination of HIF-1α (HIF-1α): increased ubiquitination of HIF-1α
Time for HIF-1α protein to return to pre-treatment levels after drug removal (HIF-1α protein): ≤ 4 h
Deubiquitination of HIF-1α in vitro [2]: prevented the deubiquitination of HIF-1α

Source: patent US20050049309A1, “Regulation of HIF protein levels via deubiquitination pathway” (priority 2003, published 2005)
